The assay concerns HSV replication augmentation in cells, fold increase. The experiment in a line: compounds boosting herpes simplex virus growth – fold increase, host cell viability (AID 1956).

Calls of active or inactive are those of the source. Cut-off read from the data, not from the text of the source: active = maximum fold increase above about 1.5; inconclusive = no clear call, values can overlap the other calls; inactive = below that; tested in PC3 cells.

One may read the EC50 as the midpoint of the concentration-response curve.

As to `O=C(NCC1(N2CCCCC2)CCCCC1)c1cccc([N+](=O)[O-])c1`, the EC50 was inactive: > 25 µM.

Source of the values: PubChem BioAssay AID1956 (SRMLSC, 2009).
